Experimental data: the supplement of paper PMC9931576
Human monoclonal antibodies against the spike receptor-binding domain (heavy:light variable regions). IC50 against pseudoviruses bearing the spike of naturally observed variants; lower = stronger; >10 µg/ml means not reached at the top dose. No active / inactive call. The stated detection limit is 0.0005 µg/ml; values near or below 0.001 µg/ml lie at the floor of the assay.

B1: BD56-1752 (protein)
chain 1: QVQLHESGPGLVTPSKTLSLTCTVSGGSISRDYWSWIRQPPGKGLEWIGYFFHTGSNKSSSSLESRVTISIDTSKNHLSLRLTSVTAADTAVYYCARQSTGWNSWYFDLWGRGTLVSVSS
chain 2: SYVLTQSPSVSVAPGQTARITCGGNNIGRNTVHWYQKKPGQAPVVVVYDESDRPSGIPERFSGSNSGNTATLSISRVEVGDEADYYCQVWDTSRDHAVFGGGTKLTVL
B2: BD56-1758 (protein)
chain 1: EVQLVESGGGLVQPGGSLRLSCAASGFTFSVYDMHWVRQATGKGLEWVSGTGTSGDTYYADSVKGRFTVSRDNAKNSLYLQMNSLRAGDTAVYYCARVEYSRGYYWYFDLWGRGTLVTVSS
chain 2: DIQVTQSPSSLSASVGDRVTITCRASHTISSYLNWYQQKPGKAPKLLIYAASSLQSGVPSRFSGSGSGTDFSLTISSLQPEDFATYYCQQSYSAPPWTFGPGTKVEVK
B3: BD56-1769 (protein)
chain 1: QVQLVQSGAEVKKPGSSVKVSCKASGGTFNSYAISWLRQAPGQGLEWMGRIIPILGRPHYAQNFQGRVTILADKSTSTASVEVSSLKSEDTAVYYCATSGFYGDLGISKDAFDIWGRGTMVTVSS
chain 2: DIQMTQSPSTLSASVGDRVTITCRASQSINSWLAWYQQKPGKAPKLLIYDASNLESGVPSRFSGSGSGTEFTLTISSLQPDDFATYYCQQYQSYSPLTFGGGTKVEIK
B4: BD56-1771 (protein)
chain 1: EVQLVESGGGLVPPGGSLRLSCAASGFTFSNYDMHWVRQGTGKGLEWVSTIGTAGDTYYPGSVKGRFTISRENAKNSLYLQMNSLTDGDTAVYYCARAQYSSNLYPRLDAWGQGTLVTVSS
chain 2: DIQMTQSPYSLSASVGDRVTITCRASQSIRNYLNWYQQKPGKAPKLLIYAASSLQSGVPSRFSGSGSGTDFTLTISSLQPEDFATYSCQQIYSSEWTFGQGTKVEVK
B5: BD56-1773 (protein)
chain 1: EVQLVESGGGLVQPGGSLRLSCAASGFIFSSFDMHWVRQGTGRGLEWVSAMGTSGDTYYEDSVKGRFTISRDNGNNSLYLQMNSLRAGDTAVYYCTRGVGHYHYYMDVWGKGTTVTVSS
chain 2: DIQLTQSPSSLSASVGDRVTMTCRASQSIRNYLNWYQQKPGKAPKLLIYAASSLQGGVPSRFSGSGSGTDFTLTISSLQPEDFATYYCQQSYSSPPWTFGQGTKVEFK
B6: BD56-1781 (protein)
chain 1: EVHLVESGGGLVQPGRSLRLSCAASGFPFDDYAMHWVRQAPGKGLEWVSGISWNGGVIGYADSVQGRCVISRDNAKSSLYLHMNSLRTEDTAFYYCVKDMSGGDYQHYFDHWGQGTLVTVSS
chain 2: SYVLTQAPSVSVAPGKTARITCGGNYIGSKSVHWYQQRPGQAPVLVVYDDSDRPSGIPERFSGSNSDNTATLTISRVEAGDEADYYCLVWDSSSDLYVFGTGTKVTVL
B7: BD56-1784 (protein)
chain 1: EVQLVESGGGLVQPGGSLRLSCAASAFTVNSAYMTWVRQPPGKGLEWVSLIFGASRTYYADSVKGRFTVGRDKNTLFLQMNNLRVEDSAVYYCARWPLSSGLGMGDYWGQGTLVTVSS
chain 2: QSVLTQPPSASGTPGQRVTISCSGSNSNIGTNTVNWYHQVPGTAPKLIIYDNNQRPSGVPDRFSGSKSGTSASLAISGLQSEDEADYYCATWDDSLDGWVFGGGTKLTVL

How the values were obtained:
Experiment in all cases: pseudovirus neutralization IC50; higher = weaker neutralization
[1] = molecular target: SARS-CoV-2 Omicron BA.1 spike pseudovirus
Method: (§1)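 Single-round VSV luciferase pseudovirus mixed with antibody dilutions for 1 h and put on Huh-7 cells for about a day; IC50 from the dose curve.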

[2] = molecular target: SARS-CoV-2 Omicron BA.2 spike pseudovirus
Method: as §1

[3] = molecular target: SARS-CoV-2 Omicron BA.2.75 spike pseudovirus
Method: as §1

[4] = molecular target: SARS-CoV-2 Omicron BA.5 spike pseudovirus
Method: as §1

[5] = molecular target: SARS-CoV-2 Omicron BQ.1.1 spike pseudovirus
Method: as §1

[6] = molecular target: SARS-CoV-2 Omicron XBB spike pseudovirus
Method: as §1

[7] = molecular target: SARS-CoV-2 early D614G spike pseudovirus
Method: as §1

Binder	pseudovirus neutralization IC50 [1]	pseudovirus neutralization IC50 [2]	pseudovirus neutralization IC50 [3]	pseudovirus neutralization IC50 [4]	pseudovirus neutralization IC50 [5]	pseudovirus neutralization IC50 [6]	pseudovirus neutralization IC50 [7]
B1	1.53 µg/mL	2.08 µg/mL	0.995 µg/mL	1.75 µg/mL	> 10 µg/mL	> 10 µg/mL	1.96 µg/mL
B2	> 10 µg/mL	> 10 µg/mL	> 10 µg/mL	> 10 µg/mL	> 10 µg/mL	> 10 µg/mL	7.94 µg/mL
B3	3.17 µg/mL	0.19 µg/mL	0.0902 µg/mL	0.175 µg/mL	> 10 µg/mL	> 10 µg/mL	0.00103 µg/mL
B4	> 10 µg/mL	> 10 µg/mL	> 10 µg/mL	> 10 µg/mL	> 10 µg/mL	> 10 µg/mL	> 10 µg/mL
B5	> 10 µg/mL	> 10 µg/mL	> 10 µg/mL	> 10 µg/mL	> 10 µg/mL	> 10 µg/mL	> 10 µg/mL
B6	0.0123 µg/mL	0.0121 µg/mL	0.00697 µg/mL	0.0908 µg/mL	> 10 µg/mL	> 10 µg/mL	0.0348 µg/mL
B7	> 10 µg/mL	> 10 µg/mL	> 10 µg/mL	> 10 µg/mL	> 10 µg/mL	> 10 µg/mL	0.702 µg/mL
